Compound potency records, mixed from different reports. Data source: NIAID ChemDB in PubChem.

Shared fields: toxicity to cultured cells; cell line: MCF-7; measure: CC50

An empty or dashed field is not shown. Rows are shuffled and stem from different studies. CCn: concentration that lowers growth or viability of the cells by n%.

SMILES | read by | value
Br.CN1C=CN(c2cccc(N3C=CN(C)C3)n2)C1 | sulforhodamine / absorbance | >30 µM
COC1=NC=C[C@@H]2O[C@@H]3SC(OC)=NC=C[C@@H]3O[C@@H]2S1 | sulforhodamine | 69.4 µg/mL
CC[C@H](C)C(=O)c1c(O)cc(O)cc1OC/C=C(\C)CCC=C(C)C | sulforhodamine | 12.5 µM
Nc1ccn([C@H]2CC[C@@H](CO)O2)c(=O)n1 |  | 610 µM
COc1c(OC(C)=O)cc2c(c1O)-c1c(cc(O)c(OC)c1OC)C[C@@H](C)[C@@H](C)C2 | MTT | 8.7 µg/mL
CC1(C)CCC[C@]2(C)[C@H]3C[C@@H](C4=CCOC4=O)CC3=CC[C@@H]12 | absorbance | 22.5 µM
C[N+](C)(C)C(Cc1c[nH]c2ccccc12)C(=O)[O-] | resazurin | >50 µg/mL
Cc1ccc(C(C)C)cc1.O=C([O-])c1cn(CCO)c2ccc(Cc3ccccc3)cc2c1=O.[Cl][Ru+] | MTT | >20 µM
CCO/C(C)=N\C1=C(C#N)C2=C(CCC/C2=C\c2ccncc2)C(c2ccncc2)S1 | MTT | 47.2 µM
COC(=O)c1ccc(/C=C/C(=O)c2ccccc2)c(Cl)n1 | MTT | 52 µM
COC1=Cc2c(cc(OC3=C4C(=CC(=O)C4(C)C)c4cc(OC)c(C)cc4C3=O)c3cc(C)c(OC)cc23)C(C)(C)C1=O | absorbance | >10 µM
COc1c(C)c(C)c2[nH]c3ccccc3c2c1O | resazurin | 8.4 µg/mL
COc1cc2c(c(OC)c1O)-c1c(cc3c(c1OC)OCO3)C[C@H](C)[C@H](C)[C@@H]2O | MTT | 5.6 µg/mL
O=C1Sc2nc3c(c(=S)n2C/C1=C/c1ccccc1)C1=C(CCC/C1=C\c1ccncc1)C(c1ccncc1)S3 | MTT | 25.6 µM
C/C(=N\NC(=O)c1ccc([N+](=O)[O-])cc1)c1cccc(/C(C)=N/NC(=O)c2ccc([N+](=O)[O-])cc2)n1 | MTT | >100 µM
CCOC(=O)CNC1=C(C#N)C2=C(CCC/C2=C\c2ccncc2)C(c2ccncc2)S1 | MTT | >50 µM
Cc1ncc(-c2c[nH]c3ccccc23)o1 | resazurin | >50 µg/mL
CCOC(=O)/C=C/c1cc(CC)cnc1Cl | MTT | 9 µM
COc1c(C)c(C)c2[nH]c3ccc(Cc4c(C)c(OC)c(O)c5c4[nH]c4ccccc45)cc3c2c1O | resazurin | 36.3 µg/mL
C[C@H]([C@@H]1CC[C@@H](C)C(=O)O1)[C@H]1CC[C@@]2(C)C3=C(CC[C@]12C)[C@@]1(C)CC[C@@H](O)C(C)(C)C1CC3 | resazurin | >50 µg/mL
CC(=O)O[C@H]1C=C2[C@@H](CC[C@H](OC(C)=O)C2(C)C)[C@]2(C)CC[C@]3(C)[C@@H]([C@H](C)C[C@H](C=C(C)C)OC(C)=O)CC[C@@]3(C)[C@H]12 | MTT | >133.3 µM
C/C(=C\C[C@H](O)[C@@H](C)[C@H]1CC[C@@]2(C)C3=C(CC[C@]12C)[C@@]1(C)CC[C@H](O)C(C)(C)C1CC3)C(=O)O | resazurin | >50 µg/mL
CC(C)c1nc(C(=O)NCc2ccc(F)cc2)c([O-])c(=O)n1C.Cc1ccc(C(C)C)cc1.[Cl][Ru+] | MTT | >20 µM
CC1=C([C@H](C)CC/C=C(/C)C(=O)O)CC[C@@]2(C)[C@@H]3CC[C@H]4C(C)(C)C(=O)CC[C@]4(C)[C@]34O[C@@H]4[C@@]12O | MTT | >40 µg/mL
CCOC1N=C2C3=C(N=CN2N1c1ccccc1)SC(c1ccncc1)C1=C3/C(=C/c2ccncc2)CCC1 | MTT | 13.9 µM
CC(=O)/C=C/c1cc(-c2ccccc2)cnc1Cl | MTT | 138 µM
Cc1ccc(/C=C2/Cn3c(nc4c(c3=S)C3=C(CCC/C3=C\c3ccncc3)C(c3ccncc3)S4)SC2=O)cc1 | MTT | 21.4 µM
CCOC(=O)/C=C/c1cc(-c2ccccc2)cnc1Cl | MTT | 11 µM
Clc1nnnc2c1C1=C(CCC/C1=C\c1ccncc1)C(c1ccncc1)S2 | MTT | 13.1 µM
Cc1cc2c(O[C@H]3O[C@H](CO)[C@@H](O)[C@H]3O)ccc(O)c2c(=O)o1 | MTT | >40 µg/mL
O=C1/C(=C/c2ccc(-c3cc(C(F)(F)F)ccc3Cl)o2)SC(=S)N1Cc1ccc(F)cc1 | MTT | 1.2 µM
C[C@@H]1C[C@@H](O)[C@H]2C3=C(C[C@H](O)[C@@]2(O)C1)C(=O)c1c(O)cccc1C3=O | resazurin | 3.6 µM
CC(=NNC(=O)c1snnc1C(F)(F)F)c1ccccn1 | MTT | 6.01 µg/mL
O=C1NC(=Nc2ccc(F)c(Cl)c2)S/C1=C\c1ccc(-c2ccc(C(=O)O)c(O)c2)o1 | MTT | 13 µM

For reference, 4 entries again:

SMILES,read by,value
C/C(=N\NC(=O)c1ccc([N+](=O)[O-])cc1)c1cccc(/C(C)=N/NC(=O)c2ccc([N+](=O)[O-])cc2)n1,MTT,>100 µM
Cc1ncc(-c2c[nH]c3ccccc23)o1,resazurin,>50 µg/mL
CC(=O)/C=C/c1cc(-c2ccccc2)cnc1Cl,MTT,138 µM
Cc1ccc(C(C)C)cc1.O=C([O-])c1cn(CCO)c2ccc(Cc3ccccc3)cc2c1=O.[Cl][Ru+],MTT,>20 µM